Experimental data taken from patent publication US20160177369.

Molecular target: his6-tagged recombinant CFP-SNAP-25-YFP chimera protein (CFP-SNAP-25 (141-206)-YFP), purified from E. coli (UniProt P60881)

In the case of “botulinum neurotoxin A (BoNT/A) holotoxin”, the “detection sensitivity, 16 hours against 4 hours incubation” value is reported as “incubation for 16 hours slightly increased the detection sensitivity” and the “rate of FRET ratio decrease at various toxin concentrations, 300 nM sensor” value is reported as “higher toxin concentration resulted in faster decrease of the FRET ratio”.
